# Only a part is listed here, and it is no random draw. The source made the active and inactive calls.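 Rule for the calls: active = inhibition of at least 50% in both of the two screening runs; inconclusive = at least 50% in one run, below 50% in the other; inactive = inhibition below 50% in both runs.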
# System: hexokinase 1 (Trypanosoma brucei)
# Test: T. brucei hexokinase 1 inhibition, single-dose recheck – biochemical, DPI cherry-picked primary actives, confirmation (AID 2560);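 note: 0% and 100% set by the maximum and minimum signal control wells on each plate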
# Settings: recombinant TbHK1, G6PDH-coupled NADH A340 absorbance; at 10 µM; stronger effect = higher value
# Summary of the method: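 Test system: T. brucei hexokinase 1, G6PDH-coupled; medium: Mg2+, NAD+ and G6PDH coupling mix; also added: glucose 0.5 mM plus ATP 0.35 mM; compound: one dose, 10 µM; schedule: enzyme reaction 2 h at room temperature; measured by: NADH absorbance at 340 nm after 50 mM EDTA stop; replicates: duplicate measurements per compound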
compound,measurement,value
O=P(Nc1nccs1)(c1ccccc1)c1nc2ccccc2s1 (stereo unspecified),inhibition,active: 88%

# From PubChem BioAssay AID2560 (University of Pittsburgh Molecular Library Screening Center, 2010)
